Laboratory results from patent publication US7186534B1 (The Trustees of Columbia University in the City of New York, priority 1997, dated 2007).

Chains of the proteins cited; added tags and fusions are not shown. Lines headed by an entry give the natural chain unless they say otherwise; changes in a name come on top.
UniProt O55240: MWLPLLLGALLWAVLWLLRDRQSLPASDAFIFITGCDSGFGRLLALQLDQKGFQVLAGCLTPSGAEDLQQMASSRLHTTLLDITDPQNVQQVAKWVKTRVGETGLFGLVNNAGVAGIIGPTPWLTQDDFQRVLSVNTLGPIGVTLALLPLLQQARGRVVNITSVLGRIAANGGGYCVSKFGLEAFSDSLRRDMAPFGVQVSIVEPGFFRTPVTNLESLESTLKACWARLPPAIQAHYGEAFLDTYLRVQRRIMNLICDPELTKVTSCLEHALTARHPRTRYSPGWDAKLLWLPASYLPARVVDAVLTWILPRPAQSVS
UniProt Q92781: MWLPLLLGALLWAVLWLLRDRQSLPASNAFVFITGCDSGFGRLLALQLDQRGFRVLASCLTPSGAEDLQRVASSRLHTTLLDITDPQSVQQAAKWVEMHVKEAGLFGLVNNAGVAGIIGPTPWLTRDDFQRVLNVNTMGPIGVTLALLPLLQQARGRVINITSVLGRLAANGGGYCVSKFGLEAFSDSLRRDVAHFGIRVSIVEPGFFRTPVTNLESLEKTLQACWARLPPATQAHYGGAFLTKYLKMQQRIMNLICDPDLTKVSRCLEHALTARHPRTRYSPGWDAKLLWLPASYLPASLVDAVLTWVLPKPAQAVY

Key:
mouse 9cRDH = mouse 9cRDH (Mus musculus, UniProt O55240); assay: Inhibition of recombinant mouse 9cRDH activity (9-cis-retinol oxidation, CHO cell homogenate, HPLC); format: biochemical; settings: phenylarsine oxide 15 μM; carbenoxolone 0.5 mM; all others 1 mM
[1] = molecular target: human 9-cis retinol dehydrogenase (9cRDH) (Homo sapiens, UniProt Q92781); assay: Inhibition of recombinant human 9cRDH activity (9-cis-retinol oxidation, CHO cell homogenate, HPLC); format: biochemical; settings: phenylarsine oxide 15 μM; carbenoxolone 0.5 mM; all others 1 mM

## O=[As]c1ccccc1 (centres unmarked)
Mouse 9cRDH
  influence of SCAD/alcohol dehydrogenase inhibiting reagents on recombinant mouse 9cRDH activity: none of these compounds influenced
[1]
  influence of SCAD/alcohol dehydrogenase inhibiting reagents on recombinant human 9cRDH activity: none of these compounds influenced
